Pooled drug test results. Numbers come from NIAID ChemDB, via PubChem.

Common to all: tests in culture; organism: Candida albicans; endpoint: inhibition

Conditions beyond the fields shown may differ between rows. For "inactive" no cut-off is given. Inhibition is in % at the dose shown (toxicity tests: loss of growth or viability).

{"structure": "COc1ccc(CC(c2ccc(OC)cc2)n2cnnc2)cc1", "strain": "28 strains", "dose": "256 µg/mL", "result": "57%"}
{"structure": "Cc1cc(C=Nc2ccc(N=Cc3cc(C)cc(/C=N/Nc4nc5ccccc5s4)c3O)cc2)c(O)c(/C=C/Nc2nc3ccccc3s2)c1", "read by": "turbidity", "dose": "25 µg/mL", "result": "6.76%"}
{"structure": "O=C(OC[C@H]1CO[C@](Cn2ccnc2)(c2ccc(-c3ccccc3)cc2)O1)c1ccccc1", "strain": "44 strains", "dose": "256 µg/mL", "result": "87.1%"}
{"structure": "COc1ccccc1/C=N/c1n[nH]c(N)n1", "read by": "agar diffusion / agar", "dose": "200 µg/mL", "result": "48%"}
{"structure": "CC(=O)N1CCN(c2ccc(OC[C@H]3CO[C@](Cn4ccnc4)(c4ccc(-c5ccccc5)cc4)O3)cc2)CC1", "strain": "44 strains", "dose": "256 µg/mL", "result": "46%"}
{"structure": "Cc1ccc(-n2cc(C(C)(C)O)nn2)cc1C", "strain": "URM 4126", "read by": "broth dilution", "dose": "2048 µg/mL", "result": "0%"}
{"structure": "C[C@H]1[C@H](O)[C@@H](C)/C=C/C=C/C=C/C=C/C=C/C=C/C=C/[C@H](O[C@@H]2O[C@H](C)[C@@H](O)[C@H](N)[C@@H]2O)C[C@@H]2O[C@](O)(C[C@@H](O)C[C@@H](O)CC[C@H](O)[C@@H](O)C[C@@H](O)CC(=O)O[C@H]1C)C[C@H](O)[C@H]2C(=O)O", "strain": "ATCC 90028", "read by": "broth dilution", "dose": "1 µg/mL", "mutations": "cph1 (CPH1)", "result": "100%"}
{"structure": "COc1ccc(C(=O)Cn2cncn2)cc1", "strain": "Fluconazole-resistant", "read by": "broth dilution", "dose": "80 µg/mL", "result": "35%"}
{"structure": "Cc1ccc(-n2cc(-c3ccc(F)cc3)c(C(=O)O)c2C)cc1", "strain": "40 strains", "dose": "11.91 µg/mL", "result": "2.5%"}
{"structure": "Cc1cc(NS(=O)(=O)c2ccc(N=Cc3c[nH]c4ccccc34)cc2)no1", "dose": "200 µg/mL", "result": "25%"}
{"structure": "C[C@H]1[C@H](O)[C@@H](C)/C=C/C=C/C=C/C=C/C=C/C=C/C=C/[C@H](O[C@@H]2O[C@H](C)[C@@H](O)[C@H](N)[C@@H]2O)C[C@@H]2O[C@](O)(C[C@@H](O)C[C@@H](O)CC[C@H](O)[C@@H](O)C[C@@H](O)CC(=O)O[C@H]1C)C[C@H](O)[C@H]2C(=O)O", "strain": "SC5314", "read by": "broth dilution", "dose": "1 µg/mL", "result": "100%"}
{"structure": "CCC(c1ccc(OC)cc1)C(O)c1ccc(OC)cc1", "strain": "28 strains", "dose": "256 µg/mL", "result": "7%"}
{"structure": "CC(C)(O)c1cn(-c2cccc3ccccc23)nn1", "strain": "URM 4125", "read by": "broth dilution", "dose": "2048 µg/mL", "result": "0%"}
{"structure": "COc1ccc(C(C(Cc2ccc(Cl)cc2Cl)c2ccc(Cl)cc2)n2ccnc2)cc1", "strain": "28 strains", "dose": "256 µg/mL", "result": "100%"}
{"structure": "COc1ccc(C(=O)Cn2ccnc2)cc1", "strain": "Fluconazole-resistant", "read by": "broth dilution", "dose": "80 µg/mL", "result": "55%"}
{"structure": "CCC(c1ccc(OC)cc1)C(c1ccc(OC)cc1)n1ccnc1", "strain": "28 strains", "dose": "256 µg/mL", "result": "57%"}
{"structure": "Cc1noc(NS(=O)(=O)c2ccc(N=Cc3c[nH]c4ccccc34)cc2)c1C", "dose": "200 µg/mL", "result": "45%"}
{"structure": "COc1ccccc1/C=N/c1n[nH]c(N)n1.COc1ccccc1/C=N/c1n[nH]c(N)n1.[O]=[V+2]", "read by": "agar diffusion / agar", "dose": "200 µg/mL", "result": "46%"}
{"structure": "CCCCCCCCn1c(-c2ccc([N+](=O)[O-])cc2)cc(C(=O)N2CCN(C)CC2)c1C", "strain": "20 strains", "dose": "200 µg/mL", "result": "0%"}
{"structure": "CCC(c1ccc(OC)cc1)C(c1ccc(OC)cc1)n1cnnc1", "strain": "28 strains", "dose": "256 µg/mL", "result": "65%"}
{"structure": "COc1ccc(C(O)Cn2ccnc2)cc1", "strain": "Fluconazole-resistant", "read by": "broth dilution", "dose": "80 µg/mL", "result": "39%"}
{"structure": "CS(=O)(=O)c1ccc(NC(=O)Oc2c(Cl)cc(Cl)cc2Cl)cc1", "dose": "25 µg/mL", "result": "inactive"}
{"structure": "Cc1c(C(=O)N(CCO)CCO)cc(-c2ccc([N+](=O)[O-])cc2)n1-c1ccc(Cl)cc1", "strain": "20 strains", "dose": "200 µg/mL", "result": "0%"}
{"structure": "Nc1nc(/N=C/c2c([O-])ccc3ccccc23)n[nH]1.Nc1nc(/N=C/c2c([O-])ccc3ccccc23)n[nH]1.[O]=[V+2]", "read by": "agar diffusion / agar", "dose": "200 µg/mL", "result": "61%"}
{"structure": "Cc1ccc(-c2cn(-c3ccc(C)cc3)c(C)c2C(=O)O)cc1", "strain": "40 strains", "dose": "93.79 µg/mL", "result": "95%"}
{"structure": "NS(=O)(=O)c1ccc(N=Cc2c[nH]c3ccccc23)cc1", "dose": "200 µg/mL", "result": "40%"}
{"structure": "C/C(=N\\c1n[nH]c(N)n1)c1ccccn1.C/C(=N\\c1n[nH]c(N)n1)c1ccccn1.[O]=[V+2]", "read by": "agar diffusion / agar", "dose": "200 µg/mL", "result": "55%"}
{"structure": "O=C1C(Nc2ccc([N+](=O)[O-])cc2)=C(S(=O)c2ccccc2)C(=O)c2ccccc21", "dose": "0.2 µg/mL", "result": "39.2%"}
{"structure": "CC(=O)OC[C@H]1O[C@@H](O[C@@H]2[C@@H](N=[N+]=[N-])[C@H](O)[C@H](O)[C@H]3OC(C)(C)O[C@H]32)[C@H](OC(C)=O)[C@@H](OC(C)=O)[C@H]1OC(C)=O", "strain": "ATCC 10231", "read by": "broth dilution / turbidity", "dose": "125 µg/mL", "result": "68.42%"}
{"structure": "CC(C)(O)c1cn(-c2ccc([N+](=O)[O-])cc2)nn1", "strain": "URM 4606", "read by": "broth dilution", "dose": "2048 µg/mL", "result": "0%"}
{"structure": "O=S(=O)(O)O/N=C(\\Cc1cn(S(=O)(=O)O)c2ccccc12)SC1OC(CO)C(O)C(O)C1O", "strain": "ATCC 10231", "dose": "400 µg/mL", "result": "70.5%"}
{"structure": "COc1ccc(CC(c2ccc(OC)cc2)n2ccnc2)cc1", "strain": "28 strains", "dose": "256 µg/mL", "result": "100%"}
{"structure": "O=[N+]([O-])c1ccc(Sc2c(S(=O)c3ccccc3)c(O)c3ccccc3c2O)cc1", "dose": "0.2 µg/mL", "result": "42.2%"}
{"structure": "OC[C@@H]1CO[C@](Cn2ccnc2)(c2ccc(-c3ccccc3)cc2)O1", "strain": "44 strains", "dose": "256 µg/mL", "result": "75.7%"}
{"structure": "CCCCCCCCCCn1c(-c2ccc([N+](=O)[O-])cc2)cc(C(=O)N(CCO)CCO)c1C", "strain": "20 strains", "dose": "200 µg/mL", "result": "0%"}
{"structure": "O=S(=O)(Nc1ncccn1)c1ccc(N=Cc2c[nH]c3ccccc23)cc1", "dose": "200 µg/mL", "result": "35%"}
{"structure": "COc1ccc(SC2=C(Sc3ccc(OC)cc3)C(=O)c3ccccc3C2=O)cc1", "dose": "0.2 µg/mL", "result": "43.5%"}
{"structure": "O=C1C(O)C(CO)OC(Oc2c[nH]c3ccccc23)C1O", "strain": "ATCC 10231", "dose": "400 µg/mL", "result": "49.1%"}
{"structure": "Cc1c(C(=O)O)c(-c2ccc(F)cc2)cn1-c1ccc(Cl)cc1", "strain": "40 strains", "dose": "26.04 µg/mL", "result": "2.5%"}
{"structure": "O=C1C=C(S(=O)c2ccccc2)C(=O)c2ccccc21", "dose": "0.2 µg/mL", "result": "38.6%"}
{"structure": "NCCCC[C@H](NC(=O)[C@H](Cc1c[nH]c2ccccc12)NC(=O)[C@H](CCCCN)NC(=O)[C@@H](N)CCCCN)C(=O)O", "strain": "ATCC 10231", "dose": "50 µM", "result": "0%"}
{"structure": "O=C(O)CCc1ccccc1", "strain": "MY1055", "dose": "1000 µg/mL", "result": "29.4%"}
{"structure": "Nc1nc(/N=C/c2ccccn2)n[nH]1", "read by": "agar diffusion / agar", "dose": "200 µg/mL", "result": "52%"}
{"structure": "O=[N+]([O-])c1c(Cl)cccc1-c1c[nH]cc1Cl", "strain": "40 strains", "dose": "47.92 µg/mL", "result": "5%"}
{"structure": "COc1ccc(C(Cc2ccc(Cl)cc2)n2ccnc2)cc1", "strain": "28 strains", "dose": "256 µg/mL", "result": "100%"}
{"structure": "Cc1ccc(-n2cc(-c3ccc(Cl)cc3)c(C(=O)O)c2C)cc1", "strain": "40 strains", "dose": "52.92 µg/mL", "result": "2.5%"}
{"structure": "COc1ccc(NC2=C(S(=O)c3ccccc3)C(=O)c3ccccc3C2=O)cc1", "dose": "0.2 µg/mL", "result": "44.5%"}
{"structure": "CC(C)(O)c1cn(-c2ccc3ccccc3c2)nn1", "strain": "URM 4124", "read by": "broth dilution", "dose": "2048 µg/mL", "result": "0%"}
{"structure": "N#C/C(=C1/Nc2ccccc2C1=O)c1c[nH]c2ccccc12", "strain": "ATCC 10231", "dose": "400 µg/mL", "result": "69.2%"}

4 of the rows above, restated:

{"structure": "N#C/C(=C1/Nc2ccccc2C1=O)c1c[nH]c2ccccc12", "strain": "ATCC 10231", "dose": "400 µg/mL", "result": "69.2%"}
{"structure": "CC(=O)OC[C@H]1O[C@@H](O[C@@H]2[C@@H](N=[N+]=[N-])[C@H](O)[C@H](O)[C@H]3OC(C)(C)O[C@H]32)[C@H](OC(C)=O)[C@@H](OC(C)=O)[C@H]1OC(C)=O", "strain": "ATCC 10231", "read by": "broth dilution / turbidity", "dose": "125 µg/mL", "result": "68.42%"}
{"structure": "COc1ccc(CC(c2ccc(OC)cc2)n2ccnc2)cc1", "strain": "28 strains", "dose": "256 µg/mL", "result": "100%"}
{"structure": "COc1ccc(C(=O)Cn2ccnc2)cc1", "strain": "Fluconazole-resistant", "read by": "broth dilution", "dose": "80 µg/mL", "result": "55%"}